US20090311693A1

Biological target: SK2 or SK3 channels (apamin-sensitive channels of MDA-MB-435s cells)
Assay: cell-based or functional assay

apamin (from UniProt P01500 28-45) (peptide)
decrease of basal [Ca2+]i in MDA-MB-435s cells after 24 h of 10 nM apamin: 46%
